# Measured values published in the supplement of paper PMC9931576.
# Changes are numbered by the printed parent chain. Human monoclonal antibodies against the spike receptor-binding domain (heavy:light variable regions). IC50 against pseudoviruses bearing the spike of naturally observed variants; lower = stronger; >10 µg/ml means not reached at the top dose. No active / inactive call. The stated detection limit is 0.0005 µg/ml; values near or below 0.001 µg/ml lie at the floor of the assay.
# B1: BD56-109 (protein)
# chain 1: QVQLVESGGGVVQPGRSLRLSCAASGFTFSNYGIHWVRQAPGKGLEWVAVISDDGSYRDYADSVKGRFTISRDNPKNTVYVQMNSLRLEDTAVYYCARDEGAMVTHFDFWGQGTLVTVSS
# chain 2: DIQMTQSPSSLSASVGDRVTITCRASQSIRGYLSWYQQKPGKAPNLLIYAASTLQSGVPSRFSGSGSGTDFTLTISSLQPEDFATYYCQQSYNTPPWTFGQGTKVEIK
# B2: BD56-118 (protein)
# chain 1: QVQLVQSGAEVKKPGSSVKVSCKASGGTLSSYAIRWVRQAPGQGLEWMGMIIPIFGTTNYAQKFQGRVTITADESTSTVYMELSSLRSEDTAVYYCARDLEHSPLYGMDVWGQGTTVTVSS
# chain 2: DIQMTQSPSSLSASIGDRVTITCRASQSISRYLNWYQQKPGKAPKLLIFAASSLQSGVPSKFSGGGSGTDFTLTISSLQPEDFATYFCQQTYSSPHTFGRGTKVEIK
# B3: BD56-120 (protein)
# chain 1: QVHLVESGGGVVHPGRSLRLSCAASGFTFSNYGMHWVRQAPGKGLEWVAAIWYDGSNKYYADSVKGRFTISRDNSKNTLYLQMNSLRAEDTAVYHCARDFAVDNSMVTWFDPWGQGTLVTVSS
# chain 2: B1 chain 2 with T22S, R30S, G31N, S34Y, N45K, T53S, S65R, S77G, A84G
# B4: BD56-130 (protein)
# chain 1: EVQLVESGGGLAQPGGSLRLSCAASGFTFSNYDMHWVRQATGKGLEWVSGIGTSGDTYYEGSVKGRFTISRENAKNSLYLQMNSLRAGDTAVYFCARGDASGYIYYFDYWGQGTLVTVSS
# chain 2: DIQMTQSPSSLSASVGDRVTLTCRASQSIGTYLNWYQQKPGKAPKLLIFAASSLRSGVPSRFSGSGSGTDFTLSISSLQPEDFATYHCQQSYSSPPWTFGQGTKVEMK
# B5: BD56-131 (protein)
# chain 1: QVQLQESGPGLVKPSETLSLKCLVSGFSISSGFYGGYIRQPPGKGLEWIGSFYHSGSTYYNPSLKTRVTILVDASKNQFSLKLTSVTAADTAVYYCARLMHPDDSSLSVWFDPWGKGTLVTVST
# chain 2: SYDLTQPPSVSVSPGQTAIITCSGYKLGDKYVSWYQQKPGQSPVLVIYQDSKRPSGIPERFSGSNSGNTATLTISGTQAMDEADFYCQTWDSNTVVFGRGTKVTVL
# B6: BD56-136 (protein)
# chain 1: QVQLVQSGAEVKKPGASVKVSCKASGYTFTNYYTHWVRQAPGQGLEWMGIINPSGGGTSYAPKFQGRVTMTRDPSTSTVYMALSSLRSEDTAVYYCARDSSEYNSNYPNAFDIWGQGTMVTVSS
# chain 2: QSALTQPASVSGSPGQSVTISCAGTSGDIGGYNYVSWYQQHPGKAPKVIIYDVSKRPSGVSNRFSGSKSGNTASLTISGLQAEDEADYYCSSYTSTSTYLFGTGTKVTVL
# B7: BD56-137 (protein)
# chain 1: QVQLVQSGSEVKKPGASVKVSCKASGYTFTDYAMNWVRQAPGQGLEWMGWINTNTGNPTYAQGFTGRFVFSLDTSVSTAYLQISNLKAEDTAVYYCARIWSYWNDASDAFDIWGQGTMVTVSS
# chain 2: QSALTQPASVSGSPGQSITISCTGTSSTVGSYNLVSWFQQHPGKAPKLIIYEGTKRPSGVSSRFSGSKSGNTASLTISGLQAGDEADYYCCSYATTTTWVFGGGTMLTVL
# Target: SARS-CoV-2 Omicron BA.1 spike pseudovirus
# Experiment: pseudovirus neutralization IC50; higher = weaker neutralization
# Protocol: (§1)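 Single-round VSV luciferase pseudovirus mixed with antibody dilutions for 1 h and put on Huh-7 cells for about a day; IC50 from the dose curve.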
row,Binder,pseudovirus neutralization IC50
1,B1,3.66 µg/mL
2,B2,0.584 µg/mL
3,B3,> 10 µg/mL
4,B4,> 10 µg/mL
5,B5,> 10 µg/mL
6,B6,> 10 µg/mL
7,B7,1.92 µg/mL

# Target: SARS-CoV-2 Omicron BA.2 spike pseudovirus
# Experiment: as above
# Protocol: as §1
row,Binder,pseudovirus neutralization IC50
1,B1,3.54 µg/mL
2,B2,0.479 µg/mL
3,B3,> 10 µg/mL
4,B4,> 10 µg/mL
5,B5,> 10 µg/mL
6,B6,> 10 µg/mL
7,B7,1.93 µg/mL

# Target: SARS-CoV-2 Omicron BA.2.75 spike pseudovirus
# Experiment: as above
# Protocol: as §1
row,Binder,pseudovirus neutralization IC50
1,B1,3.72 µg/mL
2,B2,0.548 µg/mL
3,B3,> 10 µg/mL
4,B4,> 10 µg/mL
5,B5,> 10 µg/mL
6,B6,> 10 µg/mL
7,B7,1.69 µg/mL

# Target: SARS-CoV-2 Omicron BA.5 spike pseudovirus
# Experiment: as above
# Protocol: as §1
row,Binder,pseudovirus neutralization IC50
1,B1,3.74 µg/mL
2,B2,> 10 µg/mL
3,B3,> 10 µg/mL
4,B4,> 10 µg/mL
5,B5,> 10 µg/mL
6,B6,> 10 µg/mL
7,B7,1.48 µg/mL

# Target: SARS-CoV-2 Omicron BQ.1.1 spike pseudovirus
# Experiment: as above
# Protocol: as §1
row,Binder,pseudovirus neutralization IC50
1,B1,6.71 µg/mL
2,B2,> 10 µg/mL
3,B3,> 10 µg/mL
4,B4,> 10 µg/mL
5,B5,> 10 µg/mL
6,B6,> 10 µg/mL
7,B7,> 10 µg/mL

# Target: SARS-CoV-2 Omicron XBB spike pseudovirus
# Experiment: as above
# Protocol: as §1
row,Binder,pseudovirus neutralization IC50
1,B1,7.6 µg/mL
2,B2,> 10 µg/mL
3,B3,> 10 µg/mL
4,B4,> 10 µg/mL
5,B5,> 10 µg/mL
6,B6,> 10 µg/mL
7,B7,> 10 µg/mL

# Target: SARS-CoV-2 early D614G spike pseudovirus
# Experiment: as above
# Protocol: as §1
row,Binder,pseudovirus neutralization IC50
1,B1,1.64 µg/mL
2,B2,0.202 µg/mL
3,B3,> 10 µg/mL
4,B4,> 10 µg/mL
5,B5,> 10 µg/mL
6,B6,> 10 µg/mL
7,B7,1.36 µg/mL
